A mixed list of measured activities; the numbers were collected in NIAID ChemDB.

All rows: tests in culture; species: HIV-2

ECn is the concentration giving n% inhibition of infection, replication or growth. Blank or dashed fields: not listed here. Neighbouring rows are from separate reports. Inhibition is in % at the dose shown (toxicity tests: loss of growth or viability).

| smiles | dose | read-out | cells | mutations | strain or isolate | method | value |
|---|---|---|---|---|---|---|---|
| CO[C@@H]1[C@@H](O)[C@@H](O)[C@H](O)[C@H](O)[C@H]1n1cnc2c(N)ncnc21 | 10 µg/mL | inhibition | MT-4 | - | - | cytopathic effect / MTT | 32.4% |
| Nc1ccn([C@H]2CC[C@@H](CO)O2)c(=O)n1 | 0.01 µM | inhibition | U-937 | - | LAV-2 | virus yield | >100% |
| C1CNCCNCCCN(CCCN2CCCNCCNCCCNCC2)CCNC1 | - | EC90 | MT-4 | - | ROD | cytopathic effect / MTT | 1.99 µM |
| CN=C1CN=C(c2ccc[nH]2)c2cc(Cl)ccc2N1 | - | EC90 | HT4 + HT4-6C | - | ROD | plaque count | >10 µM |
| Cc1cn([C@H]2C[C@H](N=[N+]=[N-])[C@@H](CO)O2)c(=O)[nH]c1=O | 10 µg/mL | inhibition | MT-4 | - | - | cytopathic effect / MTT | 73.5% |
| CC(C)CN(C[C@@H](O)[C@H](Cc1ccccc1)NC(=O)[C@@H](NC(=O)CNCc1cccc(F)c1)C(C)(C)C)S(=O)(=O)c1ccc(N)cc1 | - | EC90 | MT-2 | - | - | virus yield | 0.032 µM |
| CC(C)Nc1cccnc1N1CCN(C(=O)c2cc3cc(NS(C)(=O)=O)ccc3[nH]2)CC1 | - | EC90 | PBMC | - | ROD | RT activity | >62.5 µM |
| C1CNCCNCCCN[C@H]([C@@H]2CNCCCNCCNCCCN2)CNC1 | - | EC90 | CEM | - | ROD | antigen | 0.58 µM |
| Cc1cn([C@H]2C[C@H](F)[C@@H](CO)O2)c(=O)[nH]c1=O | - | EC50 | PBMC | - | 2300 | ELISA | 0.006 µM |
| Cc1cn([C@H]2C[C@H](N=[N+]=[N-])[C@@H](CO)O2)c(=O)[nH]c1=O | - | EC90 | PBMC | - | - | p24 / ELISA | 0.01 µM |
| Cc1ccnc2c1NC(=O)c1cccnc1N2C1CC1 | - | EC50 | CEM + CEM-SS | - | ROD | cytopathic effect / XTT | >38 µM |
| C#C[C@]1(CO)O[C@@H](n2cnc3c(N)nc(F)nc32)CC1O | - | EC50 | MAGIC-5A | K65R Q151M | ROD9 | β-galactosidase / absorbance | 0.0002 µM |
| Cc1cn([C@H]2C[C@H](N=[N+]=[N-])[C@@H](CO)O2)c(=O)[nH]c1=O | - | EC90 | PBMC | - | ROD | RT activity | 0.2 µM |
| Cc1cn([C@H]2C[C@H](N=[N+]=[N-])[C@@H](CCP(O[Si](C)(C)C)O[Si](C)(C)C)O2)c(=O)[nH]c1=O | 400 µM | inhibition | CEM | - | ROD | syncytia | 0% |
| CO[C@H]1[C@@H](O)[C@H](n2ccc(N)nc2=O)[C@@H](O)[C@H](O)[C@@H]1O | 10 µg/mL | inhibition | MT-4 | - | - | cytopathic effect / MTT | 46.8% |
| CC(C)[C@H](NC(=O)c1ccc2ccccc2n1)C(=O)N[C@@H](Cc1ccccc1)[C@H](O)CN1CC[C@@H](OCc2ccncc2)C[C@H]1C(=O)NC(C)(C)C | 0.152 µM | inhibition | C8166 | - | ROD | p24 | 90% |

The last 2 rows once more:

smiles	dose	read-out	cells	mutations	strain or isolate	method	value
CO[C@H]1[C@@H](O)[C@H](n2ccc(N)nc2=O)[C@@H](O)[C@H](O)[C@@H]1O	10 µg/mL	inhibition	MT-4	-	-	cytopathic effect / MTT	46.8%
CC(C)[C@H](NC(=O)c1ccc2ccccc2n1)C(=O)N[C@@H](Cc1ccccc1)[C@H](O)CN1CC[C@@H](OCc2ccncc2)C[C@H]1C(=O)NC(C)(C)C	0.152 µM	inhibition	C8166	-	ROD	p24	90%